Values after ≈ are worked out from the molar mass of the structure shown.
Columns and labels:
[1] = test system: M. abscessus subsp. abscessus ATCC 19977 844-TFM^r-5 (GyrB V496L); assay: MIC, resistant mutant; assay type: cell-based, Mycobacterium abscessus; conditions: Mycobacteroides abscessus, ATCC19977
[2] = test system: M. abscessus subsp. abscessus ATCC 19977 844-TFM^r-2 (GyrA D91G); assay: MIC, resistant mutant; assay type: cell-based, Mycobacterium abscessus; conditions: Mycobacteroides abscessus, ATCC19977
[3] = test system: M. abscessus subsp. abscessus ATCC 19977 844-TFM^r-3 (GyrA V46F); assay: MIC, resistant mutant; assay type: cell-based, Mycobacterium abscessus; conditions: Mycobacteroides abscessus, ATCC19977
[4] = test system: M. abscessus subsp. abscessus ATCC 19977 844-TFM^r-1 (GyrA D91N); assay: MIC, resistant mutant; assay type: cell-based, Mycobacterium abscessus; conditions: Mycobacteroides abscessus, ATCC19977
[5] = test system: M. abscessus subsp. abscessus ATCC 19977 844-TFM^r-1 (GyrA D91N) complemented with wild-type gyrAB; assay: Complementation of P4C-resistant strain with wild-type gyrAB; conditions: treated at 1× MIC for 2 days, OD600

| Structure (SMILES) | MIC [1] | MIC [2] | MIC [3] | MIC [4] | effect of wild-type gyrAB complementation on sensitivity [5] |
| --- | --- | --- | --- | --- | --- |
| COc1ccc2nccc(NC(=O)C3CCN(CCc4ccc(C(F)(F)F)cc4)CC3)c2n1 [844-TFM] | 5 µM (≈ 2.29 µg/mL) | > 100 µM | 20 µM (≈ 9.17 µg/mL) | > 100 µM | partially restored sensitivity |
| CC[C@H]1OC(=O)[C@H](C)[C@@H](O[C@H]2C[C@@](C)(OC)[C@@H](O)[C@H](C)O2)[C@H](C)[C@@H](O[C@@H]2O[C@H](C)C[C@H](N(C)C)[C@H]2O)[C@](C)(OC)C[C@@H](C)C(=O)[C@H](C)[C@@H](O)[C@]1(C)O [CLR, clarithromycin] | 2 µM (≈ 1.5 µg/mL) | 1 µM (≈ 0.748 µg/mL) | 2 µM (≈ 1.5 µg/mL) | 2 µM (≈ 1.5 µg/mL) | – |
| COc1c(N2C[C@@H]3CCCN[C@@H]3C2)c(F)cc2c(=O)c(C(=O)O)cn(C3CC3)c12 [MXF, moxifloxacin] | 2 µM (≈ 0.803 µg/mL) | 6 µM (≈ 2.41 µg/mL) | 1.5 µM (≈ 0.602 µg/mL) | 20 µM (≈ 8.03 µg/mL) | – |
| CCNC(=O)Nc1nc2cc(-c3cnc(C(C)(C)O)nc3)c(F)c([C@H]3CCCO3)c2[nH]1 [SPR719] | 0.02 µM (≈ 0.00857 µg/mL) | 0.04 µM (≈ 0.0171 µg/mL) | 0.05 µM (≈ 0.0214 µg/mL) | 0.06 µM (≈ 0.0257 µg/mL) | – |
| COc1ccc2nccc(NC(=O)C3CCN(CCc4ccc(Cl)cc4)CC3)c2n1 [compound 844] | 25 µM (≈ 10.6 µg/mL) | > 100 µM | 40 µM (≈ 17 µg/mL) | > 100 µM | partially restored sensitivity |

Source: PMC8284461, “Piperidine-4-Carboxamides Target DNA Gyrase in Mycobacterium abscessus” (Antimicrobial Agents and Chemotherapy, 2021)
